This experiment addresses ectodomain of SARS-CoV-2 spike protein (SARS-CoV-2). Put plainly: SEC.

Consider “ectodomain of SARS-CoV-2 spike protein (domain or fragment)”, for which the stoichiometry N stood at 3.

For orientation: stoichiometry N means a count of units in the complex or per binding partner.
